Compound potency records, mixed from different reports. Data source: NIAID ChemDB in PubChem.

All rows: tests in culture; species: HIV-1; method: MTT; read-out: EC50

An empty or dashed field is not shown. ECn: concentration that inhibits the pathogen or its effect by n%. Neighbouring rows are from separate reports.

O=C1C=C2C(C3CC4=C(C5CC6=CC(=O)O[C@@]67C[C@@H]5N5CCCC57)C(=O)O[C@@]45C[C@@H]3N3CCCC35)=C[C@@H]3C[C@@]2(O1)C1CCCN13 ; cell line: MT-4 ; strain or isolate: NL4-3 ; value: 52.4 µM
Cc1cn([C@H]2C[C@H](N=[N+]=[N-])[C@@H](CO)O2)c(=O)[nH]c1=O ; cell line: MT-4 ; strain or isolate: IIIB ; value: 0.0002 µg/mL
CCOC(=O)CC(=O)N1CCC(NC(=O)c2cc(O)c(O)c(O)c2)CC1 ; cell line: MT-4 ; strain or isolate: IIIB ; value: >31.3 µM
C#Cc1ccc(Nc2nccc(Oc3c(C)cc(-c4cn(CCC(=O)OC)nn4)cc3C)n2)cc1 ; mutations: Y188L ; cell line: MT-4 ; strain or isolate: IIIB ; value: >23.76 µM
CC(=O)Oc1ccc2ccccc2c1Cc1c(-c2ccccc2)[nH]c2ccccc12 ; cell line: MT-4 ; value: >19 µM
Cc1cc(C#Cc2ccccn2)cc(C)c1Oc1ccnc(Nc2ccc(C#N)cc2)n1 ; mutations: Y188L ; cell line: MT-4 ; strain or isolate: IIIB ; value: >2.068 µM
Cc1ccnc2c1NC(=O)c1cccnc1N2C1CC1 ; cell line: MT-4 ; strain or isolate: RES056 ; value: >15 µM
Nc1ccn([C@H]2CC[C@@H](CO)O2)c(=O)n1 ; cell line: MT-4 ; value: 1.2 µg/mL
Nc1ncnc2c1ncn2[C@@H]1OC[C@](CO)(CCP(=O)(O)O)[C@@H]1F ; cell line: PBMC ; strain or isolate: LAI ; value: 19.2 µM
NC(=O)c1[nH]c2ccc(Cl)cc2c1S(=O)(=O)c1ccccc1 ; cell line: MT-4 ; strain or isolate: IIIB ; value: 0.002 µM
BrCC[n+]1ccc(-c2cc[n+](CCBr)cc2)cc1 ; cell line: MT-4 ; strain or isolate: IIIB ; value: >5.88 µM
CCCn1cc(C(=O)O)c(=O)c2cc(I)c(Oc3ccnc(Nc4ccc(C#N)cc4)n3)cc21 ; mutations: K103N Y181C NNRTI-resistant ; cell line: MT-4 ; strain or isolate: IIIB ; value: 1.67 µM
COc1ccc2ccc(OC(C)=O)c(Cc3c(C)[nH]c4ccccc34)c2c1 ; cell line: MT-4 ; value: 15 µM
Cc1cc(C#Cc2cccc(N)c2)cc(C)c1Oc1ccnc(NC2CCN(Cc3ccc(S(N)(=O)=O)cc3)CC2)n1 ; mutations: L100I ; cell line: MT-4 ; strain or isolate: IIIB ; value: 0.14 µM
CC1=CC2c3c(O)cc(-c4cc5ccc(O)cc5o4)cc3OC3(c4ccc(O)cc4O)Oc4cc(O)ccc4C(C1)C23 ; cell line: MT-4 ; strain or isolate: IIIB ; value: >4 µg/mL
CC(=O)Nc1cccc(C#Cc2cc(C)c(Oc3ccnc(Nc4ccc(C#N)cc4)n3)c(C)c2)c1 ; mutations: Y181C ; cell line: MT-4 ; strain or isolate: IIIB ; value: 0.15 µM
Cc1ccnc2c1NC(=O)c1cccnc1N2C1CC1 ; cell line: MT-4 ; strain or isolate: IIIB ; value: 0.28 µM
N#Cc1ccc(Nc2nccc(Oc3ccc(C(=O)CC(=O)C(=O)O)cc3)n2)cc1 ; cell line: MT-4 ; strain or isolate: RES056 ; value: >42 µM
C#Cc1ccc(Nc2nccc(Oc3c(C)cc(-c4cn(Cc5ccc(C#N)cc5)nn4)cc3C)n2)cc1 ; mutations: Y181C ; cell line: MT-4 ; strain or isolate: IIIB ; value: >7.18 µM
O=C1C=C2CC(C3=C4C(C5CC6=C(C7CC8=C(C9CC%10=CC(=O)O[C@@]%10%11C[C@@H]9N9CCCC9%11)C(=O)O[C@@]89C[C@@H]7N7CCCC79)C(=O)O[C@@]67C[C@@H]5N5CCCC57)=C[C@@H]5C[C@@]4(OC3=O)C3CCCN35)[C@@H]3C[C@@]2(O1)C1CCCN13 ; cell line: MT-4 ; strain or isolate: NL4-3 ; value: 99.1 µM
c1cc(CN2CCCNCCNCCCNCC2)ccc1CN1CCCNCCNCCCNCC1 ; cell line: PM1 ; strain or isolate: NLAD8 ; value: >50 µM
CC(C)=CCc1c(O)ccc2c1OC(c1ccccc1)CC2=O ; cell line: MT-4 ; strain or isolate: IIIB ; value: 100 µg/mL
C#Cc1ccc(Nc2nccc(Oc3c(C)cc(-c4cn(CC(=O)Nc5ccc(S(C)(=O)=O)cc5)nn4)cc3C)n2)cc1 ; cell line: MT-4 ; strain or isolate: IIIB ; value: 0.056 µM
Nc1ccn([C@@H]2CC[C@H](CO)[Se]2)c(=O)n1 ; cell line: MT-4 ; strain or isolate: IIIB ; value: >100 µM
CCC(C)n1cc(C(=O)O)c(=O)c2cc(I)c(Oc3ccnc(Nc4ccc(C#N)cc4)n3)cc21 ; mutations: K103N Y181C NNRTI-resistant ; cell line: MT-4 ; strain or isolate: IIIB ; value: 0.77 µM
COc1ccc(-c2coc3cc(O)c(OC)cc3c2=O)cc1 ; cell line: MT-4 ; strain or isolate: IIIB ; value: >100 µg/mL
Cc1cc(C#Cc2ccccc2N)cc(C)c1Oc1ccnc(Nc2ccc(C#N)cc2)n1 ; mutations: Y181C ; cell line: MT-4 ; strain or isolate: IIIB ; value: 1.286 µM
CCOC(=O)C(=O)CC(=O)c1ccc(Oc2ccnc(Nc3ccc(C#N)cc3)n2)cc1 ; mutations: Y188L ; cell line: MT-4 ; strain or isolate: IIIB ; value: >22 µM
CC(C)Nc1cccnc1N1CCN(C(=O)c2cc3cc(NS(C)(=O)=O)ccc3[nH]2)CC1 ; cell line: MT-4 ; strain or isolate: IIIB ; value: 0.507 µM
CC(C)=CCc1c(O)ccc(C2COc3cc(O)c(CC=C(C)C)c(O)c3C2=O)c1O ; cell line: MT-4 ; strain or isolate: IIIB ; value: >100 µg/mL
COC1=C(OC)C(=O)C23COc4c5c(cc(c42)[C@@H](OC(C)=O)[C@@H](C)[C@@H](C)CC3=C1)OCO5 ; cell line: C8166 ; value: 7.5 µg/mL
COC(=O)N[C@H](C(=O)N[C@@H](Cc1ccccc1)[C@@H](O)CN(Cc1ccc(-c2ccccn2)cc1)NC(=O)[C@@H](NC(=O)OC)C(C)(C)C)C(C)(C)C ; cell line: MT-2 ; strain or isolate: LAI ; value: 0.0048 µM
O=c1ccn([C@@H]2CC[C@H](CO)[Se]2)c(=O)[nH]1 ; cell line: MT-4 ; strain or isolate: IIIB ; value: >100 µM
Cc1cc(Br)cc(C)c1Oc1ncc(NC(=O)C(F)(F)F)c(Nc2ccc(C#N)cc2)n1 ; cell line: MT-4 ; strain or isolate: IIIB ; value: 0.053 µM
CCCN(C)C(=O)Oc1nsnc1-c1c(Cl)ccc(N)c1Cl ; mutations: RT-E138K ; cell line: MAGI ; strain or isolate: IIIB ; value: 0.047 µM
CCS(=O)(=O)N1CCC(NC(=O)c2cc(O)c(O)c(O)c2)CC1 ; cell line: MT-4 ; strain or isolate: IIIB ; value: >36.6 µM
COc1ccc2c(Cc3c[nH]c4ccccc34)c(OC(C)=O)ccc2c1 ; cell line: MT-4 ; value: >18 µM
O=c1[nH]cnc2c1ncn2[C@H]1CC[C@@H](CO)O1 ; cell line: MT-4 ; strain or isolate: IIIB ; value: 0.7 µg/mL
O=C1C=C2CC(C3=C4CC(C5=C[C@@H]6C[C@@]7(OC(=O)C(C8CC9=C(C%10CC%11=CC(=O)O[C@@]%11%12C[C@@H]%10N%10CCCC%10%12)C(=O)O[C@@]9%10C[C@@H]8N8CCCC8%10)=C57)C5CCCN56)[C@@H]5C[C@@]4(OC3=O)C3CCCN35)[C@@H]3C[C@@]2(O1)C1CCCN13 ; cell line: MT-4 ; strain or isolate: NL4-3 ; value: 139 µM
COc1ccc2c(CN3CCN(Cc4c(O)ccc5cc(OC)ccc45)CC3)c(O)ccc2c1 ; cell line: MT-4 ; value: >100 µM
COC(=O)[C@@H]1CCCN1P(=O)(OC[C@H]1O[C@@H](n2cc(C)c(=O)[nH]c2=O)CC1N=[N+]=[N-])Oc1ccccc1 ; cell line: MT-4 ; strain or isolate: ROD ; value: 0.898 µM
COc1ccc2[nH]cc(Cc3c(OC(C)=O)ccc4cc(Br)ccc34)c2c1 ; cell line: MT-4 ; value: >20 µM
COC1=C(OC)C(=O)C23C(=C1)C[C@@H](C)[C@]2(C)[C@@H](O)c1cc2c(c(OC)c13)OCO2 ; cell line: C8166 ; value: 79.5 µg/mL
O=c1[nH]cnc2c1ncn2[C@H]1CC[C@@H](CO)O1 ; cell line: MT-4 ; strain or isolate: IIIB ; value: 76 µM
Cc1cn([C@H]2C[C@H](N=[N+]=[N-])[C@@H](CO)O2)c(=O)[nH]c1=O ; mutations: Y181C ; cell line: MT-4 ; strain or isolate: IIIB ; value: 0.005 µM
O=c1[nH]cnc2c1ncn2[C@H]1CC[C@@H](CO)O1 ; cell line: MT-4 ; strain or isolate: IIIB ; value: 8.085 µM
CC(C)=CCc1c(O)cc2c(c1O)C(=O)C[C@@H](c1ccc(O)cc1)O2 ; cell line: MT-4 ; strain or isolate: IIIB ; value: 19 µg/mL
Nc1ccn([C@H]2CC[C@H](CO)[Se]2)c(=O)n1 ; cell line: MT-4 ; strain or isolate: IIIB ; value: >100 µM
COc1ccccc1C(=O)N1CCC(NC(=O)c2cc(O)c(O)c(O)c2)CC1 ; cell line: MT-4 ; strain or isolate: IIIB ; value: >147.2 µM
C#Cc1ccc(Nc2nccc(Oc3c(C)cc(-c4cn(Cc5ccc(O)cc5)nn4)cc3C)n2)cc1 ; mutations: L100I ; cell line: MT-4 ; strain or isolate: IIIB ; value: ≥0.35 µM
Cc1cn([C@H]2C[C@H](N=[N+]=[N-])[C@@H](COP(=O)(Oc3cccnc3)Oc3cccnc3)O2)c(=O)[nH]c1=O ; cell line: MT-4 ; strain or isolate: IIIB ; value: 0.02 µM
C/C=C(/C)C(=O)O[C@H]1c2cc3c(c4c2C2(CO4)C(=O)C(OC)=C(OC)C=C2C[C@@H](C)[C@H]1C)OCO3 ; cell line: C8166 ; value: 17.8 µg/mL
Cc1cc(C)c(Oc2ncc([N+](=O)[O-])c(Nc3ccc(C#N)cc3)n2)c(C)c1 ; cell line: MT-4 ; strain or isolate: RES056 ; value: >25 µM
COc1cc2c(c(OC)c1OC)-c1c(cc3c(c1OC)OCO3)[C@H](OC(C)=O)[C@H](C)[C@H](C)C2 ; cell line: C8166 ; value: 17.4 µg/mL
O=C(NC1CCN(S(=O)(=O)c2ccccc2)CC1)c1cc(O)c(O)c(O)c1 ; cell line: MT-4 ; strain or isolate: IIIB ; value: >127.8 µM
Cc1cn([C@H]2C[C@H](N=[N+]=[N-])[C@@H](CO)O2)c(=O)[nH]c1=O ; cell line: MT-4 ; strain or isolate: IIIB ; value: 0.007 µM
CC1(C)C=Cc2c(ccc(-c3coc4cc(O)ccc4c3=O)c2O)O1 ; cell line: MT-4 ; strain or isolate: IIIB ; value: >100 µg/mL
CC(C)Cn1cc(C(=O)O)c(=O)c2cc(Br)c(Oc3ccnc(Nc4ccc(C#N)cc4)n3)cc21 ; mutations: K103N Y181C NNRTI-resistant ; cell line: MT-4 ; strain or isolate: IIIB ; value: ≥7.99 µM
CC(C)=CCc1c(O)cc2occ(-c3cc(O)c4c(c3)C=CC(C)(C)O4)c(=O)c2c1O ; cell line: MT-4 ; strain or isolate: IIIB ; value: >20 µg/mL
Cc1cc(C#Cc2ccccc2)cc(C)c1Oc1ccnc(Nc2ccc(C#N)cc2)n1 ; mutations: K103N ; cell line: MT-4 ; strain or isolate: IIIB ; value: 0.125 µM
CC(=O)c1ccc(C)cc1NC(C(N)=O)c1c(Cl)cccc1Cl ; mutations: RT-D67N K70N T215F K219Q ; cell line: MT-4 ; strain or isolate: ADP141 (RT D67N K70N T215F K219Q) ; value: 0.02 µg/mL
CC(=O)Oc1ccc2ccccc2c1Cc1c[nH]c2ccccc12 ; cell line: MT-4 ; value: >30 µM
CC(C)Nc1cccnc1N1CCN(C(=O)c2cc3cc(NS(C)(=O)=O)ccc3[nH]2)CC1 ; mutations: Y188L ; cell line: MT-4 ; strain or isolate: IIIB ; value: 0.542 µM
c1cc(CN2CCCNCCNCCCNCC2)ccc1CN1CCCNCCNCCCNCC1 ; cell line: MT-4 ; strain or isolate: NL4-3 ; value: 0.06 µM
O=c1cnn([C@@H]2O[C@H](CO)[C@@H](O)[C@H]2O)c(=O)[nH]1 ; cell line: MT-4 ; value: >0.2 µM
Cc1cc(C#Cc2cccc(N)c2)cc(C)c1Oc1ccnc(NC2CCN(c3cccc(C(N)=O)c3)CC2)n1 ; mutations: L100I ; cell line: MT-4 ; strain or isolate: IIIB ; value: >1.063 µM
COc1ccc2c(Cc3c[nH]c4ccc(Br)cc34)c(OC(C)=O)ccc2c1 ; cell line: MT-4 ; value: 9 µM
O=c1c(-c2ccc(O)cc2)coc2cc(O)cc(O)c12 ; cell line: MT-4 ; strain or isolate: IIIB ; value: >20 µg/mL

The first 8 rows once more:

SMILES,mutations,cell line,strain or isolate,value
O=C1C=C2C(C3CC4=C(C5CC6=CC(=O)O[C@@]67C[C@@H]5N5CCCC57)C(=O)O[C@@]45C[C@@H]3N3CCCC35)=C[C@@H]3C[C@@]2(O1)C1CCCN13,,MT-4,NL4-3,52.4 µM
Cc1cn([C@H]2C[C@H](N=[N+]=[N-])[C@@H](CO)O2)c(=O)[nH]c1=O,,MT-4,IIIB,0.0002 µg/mL
CCOC(=O)CC(=O)N1CCC(NC(=O)c2cc(O)c(O)c(O)c2)CC1,,MT-4,IIIB,>31.3 µM
C#Cc1ccc(Nc2nccc(Oc3c(C)cc(-c4cn(CCC(=O)OC)nn4)cc3C)n2)cc1,Y188L,MT-4,IIIB,>23.76 µM
CC(=O)Oc1ccc2ccccc2c1Cc1c(-c2ccccc2)[nH]c2ccccc12,,MT-4,,>19 µM
Cc1cc(C#Cc2ccccn2)cc(C)c1Oc1ccnc(Nc2ccc(C#N)cc2)n1,Y188L,MT-4,IIIB,>2.068 µM
Cc1ccnc2c1NC(=O)c1cccnc1N2C1CC1,,MT-4,RES056,>15 µM
Nc1ccn([C@H]2CC[C@@H](CO)O2)c(=O)n1,,MT-4,,1.2 µg/mL